From ChEMBL document CHEMBL3988442, “University of Dundee, Small-Polar-MMV Screening Library” (2021).

A: 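Phenotypic screen: M. tuberculosis growth, glucose 7H9 medium, 3 days; the read-out is not stated. Compounds at 500 µM. Direction is inferred from retests: higher values go with more growth inhibition. About 18,000 compounds were tested under these conditions; 7.9% (about 1,400) showed 50% or more at least once.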
B: 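Phenotypic screen: M. tuberculosis growth, cholesterol and DPPC medium, 4 days; the read-out is not stated. Tested at 500 µM. Higher reads as more growth inhibition (inferred: compounds with an IC50 in retests scored well above the rest). Of about 18,000 compounds tested this way, about 900 (5%) reached 50% or more in at least one test.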

The filed quantity is “Percent Effect” (%).
The record does not define 0% and 100%; most values in the screen are far below 50% and negative numbers occur (in some assays of this library far below -100).
The entries come from a sample that favours strong results.
A dash means the value is not listed here; it may have been measured.

SMILES	A	B
Cn1c(NC(=O)c2ccccc2I)cc(=O)n(C)c1=O	-	-6.809%
CC(C)(C)OC(=O)N1C[C@@H]2[C@@H](N)[C@@H]2C1	16.19%	-
CCC(C(=O)Nc1ccc(OC)cc1)N(C)C (stereo not drawn)	12.84%	-
CC(C)CC(C)NCc1ccc(C(N)=O)o1 (stereo not drawn)	11.14%	-
O=C(CSCc1ccc(Cl)s1)N1CCOCC1	58.99%	-
NC1CCN(CC2CCCC2)C1 (stereo not drawn)	5.775%	-
Cc1cc(C)cc(NC(=O)CCN2CCN(C)CC2)c1	-	7.014%
O=C(COc1ccc(C(F)(F)F)cc1)NCCCO	-	29.73%
O=C(Cc1cc(F)ccc1F)N[C@H]1CCCNC1	4.259%	-
CC(C)c1noc(CCNC(=O)C2CC2)n1	10.47%	-
O=C(CSc1ncccn1)Nc1ccc2c(c1)OCO2	9.892%	-
CCOCCOc1cccc(NC(=O)NCCN)c1	4.84%	10.03%
NC1CCN(c2ccccn2)C1 (stereo not drawn)	13.69%	14.27%
CN(C)C(=O)c1ccc(OCC2CCCO2)cc1 (stereo not drawn)	-0.2216%	-
CCCN1CCC(NC(=O)c2ccncc2)CC1	16.21%	-
NS(=O)(=O)N1CCC(Cc2ccccc2)CC1	49.47%	46.21%
NS(=O)(=O)c1ccccc1-c1ccccc1	-	21.97%
CC(=O)c1ccc(C(=O)NC(C)c2n[nH]c(=O)[nH]2)s1 (stereo not drawn)	-	9.708%
CC(C)C(=O)Nc1ccccc1-n1cncn1	-	-5.927%
CC(=O)Nc1ccc(C2=NN=C(NC(C)C)SC2)cc1	37.65%	20.96%
CN(Cc1ncc[nH]1)C(=O)C(O)c1cccc(Cl)c1 (stereo not drawn)	14.27%	-
COc1cccc(CN(C)C(=O)c2occc2C)n1	64.15%	54.79%
CNCC(=O)NCCc1cnn(-c2ccccc2)c1	-	28.42%
NC(=O)NC(=O)CCn1cc(I)cn1	-	10.33%
NS(=O)(=O)c1ccc(OCC(F)(F)F)nc1	4.259%	3.439%
Cc1ncsc1C(=O)NCC(C)(C)CN(C)C	3.412%	-
OC1(c2c(F)cccc2F)CCNCC1	3.223%	-
CC(C)NC(=O)CCN(C)C(C)Cc1cnccn1 (stereo not drawn)	0.3464%	-
NC(=O)c1cc(OC2CCNCC2)ccn1	-	1.408%
COc1cccc(C(N)c2cccnc2)c1 (stereo not drawn)	-	8.738%
CCCN(CC(=O)OC)S(=O)(=O)CCCC#N	2.256%	-
Cc1ccc(CN2CCC(C3CCNC3)CC2)nc1 (stereo not drawn)	-	0.2653%
N#Cc1cccc(CNc2ccc(OCCO)nc2)c1	-20.34%	-
Cc1ccc(NC(=O)NCC(=O)NC(C)(C)C)cc1	37.53%	-
COc1ccc(C(N)c2ccco2)cc1 (stereo not drawn)	19.91%	20.26%
Cc1ccc(C(=O)N(C)CCCS(C)(=O)=O)cc1	-5.26%	-
O=C(CCC(=O)Nc1ccccc1)NCCO	0.1818%	2.725%
CCc1cnc(CCN)s1	48.92%	-
CC1CN(CCC(=O)NCc2cccs2)CCCO1 (stereo not drawn)	19.55%	76.74%
CN(CCCNC(=O)C1CCC(=O)N1)c1ccccc1 (stereo not drawn)	13.56%	-
CCOCCN1CCN(CC)[C@@H]2CS(=O)(=O)C[C@@H]21	7.679%	-
Cc1ccc(C)c(OCC(O)CN2CCOCC2)c1 (stereo not drawn)	27.95%	-
NCC1(O)Cc2ccccc2C1	-2.908%	-